Drawing on US9617289B2, “RSV antiviral compounds” (JANSSEN R&D IRELAND, priority 2012, dated 2017), this text covers SI_TOX-HELA_wt and SI for 27 molecules.

The series concerns HeLa cells. Description: Cytotoxicity in HeLa cells (ATP content, ATPlite kit); SI calculated as CC50/EC50. Format: cell-based. The following applies: SI is calculated as CC50/EC50, three days.

Several values for one entry are separate records, joined by “and”; a condition that tells them apart may be missing. Equal entries are not always repeated. Structures can show the parent of a compound that is named as a salt. No dose or concentration is given here for some results.

As for `NS(=O)(=O)N1CCC2(CC1)C(=O)N(Cc1cc3cc(Cl)ccc3n1CCCCF)c1cnccc12` [Compound 111, 1′-{[5-Chloro-1-(4-fluorobutyl)-1H-indol-2-yl]methyl}-2′-oxo-1′,2′-dihydro-1H-spiro[piperidine-4,3′-pyrrolo[2,3-c]-pyridine]-1-sulfonamide], the SI_TOX-HELA_wt is given as 274530.

With `CC(=O)NS(=O)(=O)N1CCC2(CC1)C(=O)N(Cc1cc3cc(Cl)ccc3n1CCCCF)c1cnccc12` [Compound 114, N-[(1′-{[5-Chloro-1-(4-fluorobutyl)-1H-indol-2-yl]methyl}-2′-oxo-1′,2′-dihydro-1H-spiro[piperidine-4,3′-pyrrolo[2,3-c]-pyridin]-1-yl)sulfonyl]acetamide], the SI_TOX-HELA_wt is listed as 120036.

`N#CCCCn1c(CN2C(=O)C3(CCN(C(=O)OC4COC4)CC3)c3ccncc32)cc2cc(Cl)ccc21` [Compound 80, oxetan-3-yl 1′-((5-chloro-1-(3-cyanopropyl)-1H-indol-2-yl)-methyl)-2′-oxo-1′,2′-dihydro[spiropiperidine-4,3′-pyrrolo-[2,3-c]pyridine]-1-carboxylate]: the SI was over 319161.

On to `CS(=O)(=O)CCCn1c(CN2C(=O)C3(CCOCC3)c3ccncc32)nc2cc(Cl)ccc21` [Compound 38, 1′-((5-chloro-1-(3-(methylsulfonyl)propyl)-1H-benzo[d]-imidazol-2-yl)methyl)-2,3,5,6-tetrahydrospiro[pyran-4,3′-pyrrolo[2,3-c]pyridin]-2′(1′H)-one], for which the SI is over 571387.

`N#CCCCn1c(CN2c3ccccc3[C@]3(C[C@@H](OC(=O)NC4CC4)C3)C2=O)nc2cc(Cl)ccc21` [Compound 173, (1r,3r)-1′-((5-chloro-1-(3-cyanopropyl)-1H-benzo[d]imidazol-2-yl)methyl)-2′-oxospiro[cyclobutane-1,3′-indolin]-3-yl cyclopropylcarbamate]: the SI_TOX-HELA_wt is listed as 2178763.

As for `CC(C)(O)C(=O)N1CCC2(C1)C(=O)N(Cc1nc3cc(Cl)ccc3n1CCCC#N)c1ccccc12` (stereo not drawn) [Compound 154, 4-(5-Chloro-2-{[1′-(2-hydroxy-2-methylpropanoyl)-2-oxospiro[indole-3,3′-pyrrolidin]-1(2H)-yl]methyl}-1H-benzimidazol-1-yl)butanenitrile], the SI_TOX-HELA_wt was over 85767.

In the case of `CC(C)CCn1c(CN2C(=O)C3(CCN(C(=O)OC(C)(C)C)CC3)c3ccncc32)cc2cnccc21` [Compound 97, tert-Butyl 1′-{[1-(3-methylbutyl)-1H-pyrrolo[3,2-c]pyridin-2-yl]methyl}-2′-oxo-1,2′-dihydro-1H-spiro[piperidine-4,3′-pyrrolo[2,3-c]pyridine]-1-carboxylate], the SI_TOX-HELA_wt is reported as 31764.

Regarding `CC(C)(C)OC(=O)N1CC2(C1)C(=O)N(Cc1nc3cc(Cl)ccc3n1CCCC#N)c1ccccc12` [Compound 70, tert-butyl 1′-((5-chloro-1-(3-cyanopropyl)-1H-benzo[d]-imidazol-2-yl)methyl)-2′-oxospiro[azetidine-3,3′-indoline]-1-carboxylate], the SI is >325484 and >313148.

Turning to `COC(=O)N[C@H]1C[C@@]2(C1)C(=O)N(Cc1nc3cc(Cl)ccc3n1CCCC#N)c1ccccc12` [Compound 136, methyl ((1r,3r)-1′-((5-chloro-1-(3-cyanopropyl)-1H-benzo[d]imidazol-2-yl)methyl)-2′-oxospiro[cyclobutane-1,3′-indolin]-3-yl)carbamate], the SI_TOX-HELA_wt was 251299.

As for `CS(=O)(=O)CCCn1c(CN2C(=O)C3(CCOCC3)c3ccc(F)cc32)nc2cc(Cl)ccc21` [Compound 10, 1-((5-chloro-1-(3-(methylsulfonyl)propyl)-1H-benzo[d]-imidazol-2-yl)methyl)-6-fluoro-2′,3′,5′,6′-tetrahydro-spiro[indoline-3,4′-pyran]-2-one], the SI is 49544.

Consider `CC(=O)NS(=O)(=O)N1CCC2(CC1)C(=O)N(Cc1cc3cc(Cl)ccc3n1CCCC#N)c1cnccc12` [Compound 172, N-[(1′-{[5-Chloro-1-(3-cyanopropyl)-1H-indol-2-yl]methyl}-2′-oxo-1′,2′-dihydro-1H-spiro[piperidine-4,3′-pyrrolo[2,3-c]pyridin]-1-yl)sulfonyl]acetamide], for which the SI_TOX-HELA_wt is given as over 1.515e+006.

`CS(=O)(=O)CCCn1c(CN2C(=O)C3(CCN(C(=O)C4CC4)CC3)c3ccncc32)nc2cc(Cl)ccc21` [Compound 90, 1′-({5-Chloro-1-[3-(methylsulfonyl)propyl]-1H-benzimidazol-2-yl}methyl)-1-(cyclopropylcarbonyl)spiro[piperidine-4,3′-pyrrolo[2,3-c]pyridin]-2′(1′H)-one]: the SI_TOX-HELA_wt is over 2.14e+006.

Consider `CC(C)(O)C(=O)N1CCC2(CC1)C(=O)N(Cc1c(C(N)=O)c3cc(Cl)ccc3n1CCCCF)c1cnccc12` [Compound 153, 5-Chloro-1-(4-fluorobutyl)-2-{[1-(2-hydroxy-2-methylpropanoyl)-2′-oxospiro[piperidine-4,3′-pyrrolo[2,3-c]pyridin]-1′(2′H)-yl]methyl}-1H-indole-3-carboxamide], for which the SI_TOX-HELA_wt is reported as 388687.

With `CS(=O)(=O)CCCn1c(CN2c3ccccc3[C@]3(C[C@@H](OC(=O)N4CCOCC4)C3)C2=O)nc2cc(Cl)ccc21` [Compound 133, (1r,3r)-1′-((5-chloro-1-(3-(methylsulfonyl)propyl)-1H-benzo[d]imidazol-2-yl)methyl)-2′-oxospiro[cyclobutane-1,3′-indolin]-3-yl morpholine-4-carboxylate], the SI_TOX-HELA_wt is over 714628.

For `CC(C)(O)C(=O)N1CC[C@@]2(C1)C(=O)N(Cc1nc3cc(Cl)ccc3n1CCCS(C)(=O)=O)c1ccccc12` [Compound 121, (R)-1-({5-Chloro-1-[3-(methylsulfonyl)propyl]-1H-benzimidazol-2-yl}methyl)-1′-(2-hydroxy-2-methylpropanoyl)spiro[indole-3,3′-pyrrolidin]-2(1H)-one], the SI_TOX-HELA_wt was over 11676.2.

For the molecule `CC(C)(O)C(=O)N1CCC2(CC1)C(=O)N(Cc1cc3cc(Cl)ccc3n1CCCCF)c1cnccc12` [Compound 106, 1′-{[5-Chloro-1-(4-fluorobutyl)-1H-indol-2-yl]methyl}-1-(2-hydroxy-2-methylpropanoyl)spiro[piperidine-4,3′-pyrrolo-[2,3-c]pyridin]-2′(1′H)-one], the SI_TOX-HELA_wt is recorded as 80390.

On to `N#CCCCn1c(CN2C(=O)C3(CN(C(=O)[C@@H](O)CO)C3)c3ccccc32)cc2cc(Cl)ccc21` (single isomer, unassigned) [Compound 129], for which the SI_TOX-HELA_wt was 144016.

For the molecule `CC(C)(O)C(=O)N1CCC2(CC1)C(=O)N(Cc1cc3cc(Cl)ccc3n1CCCS(C)(=O)=O)c1cnccc12` [Compound 74, 1′-((5-chloro-1-(3-(methylsulfonyl)propyl)-1H-indol-2-yl)-methyl)-1-(2-hydroxy-2-methylpropanoyl)spiro[piperidine-4,3′-pyrrolo[2,3-c]pyridin]-2′(1′H)-one], the SI is listed as 342437.

Regarding `COc1ccc(S(=O)(=O)N2CCC3(CC2)C(=O)N(Cc2nc4cc(Cl)ccc4n2CCCS(C)(=O)=O)c2ccccc23)cc1` [Compound 36, 1-({5-chloro-1-[3-(methylsulfonyl)propyl]-1H-benzimidazol-2-yl}methyl)-1′-[(4-methoxyphenyl)-sulfonyl]spiro[indole-3,4′-piperidin]-2(1H)-one], the SI is 353419.

With `CC(C)(O)C(=O)N1CC2(C1)C(=O)N(Cc1cc3cc(Cl)ccc3n1CCCC#N)c1ccccc12` [Compound 73, 4-(5-chloro-2-((1-(2-hydroxy-2-methylpropanoyl)-2′-oxospiro[azetidine-3,3′-indolin]-1′-yl)methyl)-1H-indol-1-yl)butanenitrile], the SI is given as 51488.

`N#CCCCn1c(CN2C(=O)C3(CN(C(=O)C(O)CO)C3)c3ccccc32)cc2cc(Cl)ccc21` (stereo not drawn) [Compound 165, 4-(5-chloro-2-((1-(2,3-dihydroxypropanoyl)-2′-oxospiro[azetidine-3,3′-indolin]-1′-yl)methyl)-1H-indol-1-yl)butanenitrile]: the SI_TOX-HELA_wt is 288416.

Take `CC(=O)N1CCC2(CC1)C(=O)N(Cc1cc3cc(Cl)ccc3n1CCCC#N)c1cnccc12` [Compound 64, 4-(2-((1-acetyl-2′-oxospiro[piperidine-4,3′-pyrrolo[2,3-c]-pyridin]-1′(2′H)-yl)methyl)-5-chloro-1H-indol-1-yl)butane-nitrile]: the SI is over 379778.

With `CC(C)(O)C(=O)N1CC2(C1)C(=O)N(Cc1cc3cc(Cl)ccc3n1CCCS(C)(=O)=O)c1ccccc12` [Compound 152, 1′-({5-Chloro-1-[3-(methylsulfonyl)propyl]-1H-indol-2-yl}methyl)-1-(2-hydroxy-2-methylpropanoyl)spiro[azetidine-3,3′-indol]-2′(1′H)-one], the SI_TOX-HELA_wt is on record as 31147.

For `N#CCCCn1c(CN2c3ccccc3[C@]3(C[C@@H](O)C3)C2=O)nc2cc(Cl)ccc21` [Compound 176, 4-(5-chloro-2-(((1r,3r)-3-hydroxy-2′-oxospiro[cyclobutane-1,3′-indolin]-1′-yl)methyl)-1H-benzo[d]imidazol-1-yl)butanenitrile], the SI_TOX-HELA_wt is on record as over 278272.

For `CS(=O)(=O)N1CCC2(CC1)C(=O)N(Cc1cc3cc(Cl)ccc3n1CCCC#N)c1cnccc12` [Compound 105, 4-(5-Chloro-2-{[1-(methylsulfonyl)-2′-oxospiro[piperidine-4,3′-pyrrolo[2,3-c]pyridin]-1′(2′H)-yl]methyl}-1H-indol-1-yl)butanenitrile], the SI_TOX-HELA_wt is reported as 895262.

Regarding `O=C1N(Cc2nc3cc(Cl)ccc3n2CCCC(F)(F)F)c2ccccc2C12CCNCC2` [Compound 49, 1-((5-chloro-1-(4,4,4-trifluorobutyl)-1H-benzo[d]imidazol-2-yl)methyl) spiro[indoline-3,4′-piperidin]-2-one], the SI was 2615.

As for `N#CCCCn1c(CN2C(=O)C3(CCNCC3)c3ccncc32)cc2cc(Cl)ccc21` [Compound 78, 4-(5-chloro-2-((2′-oxospiro[piperidine-4,3′-pyrrolo[2,3-c]-pyridin]-1′(2′H)-yl)methyl)-1H-indol-1-yl)butanenitrile hydrochloride], the SI is on record as 24938.
